## Screening data, single-dose tests

Data taken from ChEMBL document CHEMBL3988442, “University of Dundee, Small-Polar-MMV Screening Library” (2021).

The filed quantity is “Percent Effect” (%).
The record does not define 0% and 100%; most values in the screen are far below 50% and negative numbers occur (in some assays of this library far below -100).
This is part of a subset picked to be rich in strong results.
A dash means the value is not listed here; it may have been measured.

Mtb cholesterol medium: 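Growth of Mycobacterium tuberculosis over 4 days (cholesterol / DPPC medium with tyloxapol); the read-out is not stated. Compounds at 500 µM. Direction is inferred from retests: higher values go with more growth inhibition. Of about 18,000 compounds tested this way, about 900 (5%) reached 50% or more in at least one test.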
Mtb glucose medium: 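Phenotypic screen: M. tuberculosis growth, glucose 7H9 medium, 3 days; the read-out is not stated. Concentration: 500 µM. The record gives no direction; compounds that gave an IC50 in retests scored well above the rest, so higher reads as more growth inhibition. Size under these conditions: about 18,000 compounds, about 1,400 of them at 50% or above in at least one test.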

- O=C(c1cccc(F)c1)N1CCN(c2nccs2)CC1 | Mtb glucose medium: 53.05%
- COCCCNC(=O)c1c(C)oc(C)c1S(N)(=O)=O | Mtb cholesterol medium: -10.35%
- Cc1ccoc1C(=O)N(C)Cc1ccc[nH]1 | Mtb glucose medium: 22.94%
- COCCN(C)C(=O)Nc1cccc(C)n1 | Mtb cholesterol medium: 4.71%; Mtb glucose medium: 11.84%
- C1COC(CN2CCCNCC2)C1 (centres undefined) | Mtb cholesterol medium: -1.602%
- Cn1ncc(Cl)c1C(=O)N1CCc2ccccc2C1 | Mtb glucose medium: 5.023%
- CC1CCCN(c2cc(CNS(C)(=O)=O)ccn2)C1 (centres undefined) | Mtb cholesterol medium: 64.88%; Mtb glucose medium: 61.12%
- CC(C)(C#N)c1ccc(-c2cc(C(N)=O)ccn2)cc1 | Mtb glucose medium: 44.53%
- CC1CCCCN1C(=O)NC1CCC2(CC1)OCCO2 (centres undefined) | Mtb glucose medium: -2.337%
- Cc1csc(C(=O)N2CC[C@H](O)C2)c1I | Mtb glucose medium: 37.73%
- Cn1c(=O)[nH]c2cc(C(=O)N3CCCCCC3)ccc21 | Mtb cholesterol medium: 11.04%
- CS(=O)(=O)NCCc1csc(N2CCCC2)n1 | Mtb glucose medium: 56.33%
- Cc1nccn1CC1CCN(CC(O)CO)CC1 (centres undefined) | Mtb cholesterol medium: 4.607%
- CCOC(=O)CNC(C)(C)C | Mtb cholesterol medium: -2.206%
- CC1(C)C(C(=O)N2CCC(N)C2)C1(C)C (centres undefined) | Mtb cholesterol medium: -12.65%
- NCCNS(=O)(=O)c1ccc(F)c(Br)c1 | Mtb glucose medium: 50.4%
- CC(C)N1CCC(NC(=O)c2ccoc2)CC1 | Mtb cholesterol medium: 1.025%
- N#Cc1cccc(NC(=O)CCN2CCOC2=O)c1 | Mtb glucose medium: 5.418%
- Cc1cc(NC2(CO)CCC2)n2ncnc2n1 | Mtb cholesterol medium: -7.111%
- C=C(C)CN1CCN(c2ccccn2)CC1 | Mtb cholesterol medium: 72.67%
- COc1cc(OC)c(S(N)(=O)=O)c(OC)c1 | Mtb cholesterol medium: -17.18%
- COCCN(C)CCCNC(=O)c1cnc(C)cn1 | Mtb glucose medium: 5.887%
- Cc1cc(N2CCCCC2)nc(CO)n1 | Mtb glucose medium: 14.69%
- Cn1cc(C(=O)NCCc2ccccc2)ccc1=O | Mtb glucose medium: 8.446%
- O=C(CCC1CCCCC1)N1CCNCC1 | Mtb cholesterol medium: 40.8%
- COc1ccc(C2=NOC(C(=O)NC(C)C)C2)cc1 (centres undefined) | Mtb cholesterol medium: 6.842%
- Cc1cccc(N2CCN(C3CC3)CC2)n1 | Mtb glucose medium: 6.122%
- COc1ccc(NC(=O)NCCN2CCOCC2)cc1 | Mtb cholesterol medium: -0.1624%
- O=C(Nc1n[nH]c(C2CCC2)n1)c1cc(F)ccc1F | Mtb glucose medium: -2.146%
- CC(C)C1c2nccn2CCCN1C(=O)c1cnco1 (centres undefined) | Mtb glucose medium: 2.747%
- CSC(C)C(=O)NCCNC(=O)C(C)C (centres undefined) | Mtb glucose medium: 4.872%
- c1cc(CNc2ncnc3[nH]ncc23)c2c(c1)OCO2 | Mtb glucose medium: 21.99%
- COCC(=O)NCCc1cc(Cl)c2c(c1)OCCO2 | Mtb cholesterol medium: 66.45%; Mtb glucose medium: 57.7%
- N#CCS(=O)(=O)NCc1ccc(F)cc1 | Mtb cholesterol medium: 12.04%
- C[C@@H](N)C(=O)N1Cc2ccccc2C1 | Mtb glucose medium: 5.562%
- COCc1nn(CC(=O)c2cc(F)ccc2F)c(=O)o1 | Mtb glucose medium: 4.209%
- COc1cc(Br)ccc1CCCNC(=O)c1c[nH]nn1 | Mtb cholesterol medium: 89.35%
- CCC(NC(=O)c1cccn1C(C)C)[C@H]1C[C@H](O)C1 (some centres undefined) | Mtb glucose medium: -13.79%
- CC1CCCCN1CC(=O)N1CCN(S(C)(=O)=O)CC1 (centres undefined) | Mtb glucose medium: -10.38%
- CCc1ccccc1NC(=O)C1CC(=O)C1 | Mtb glucose medium: 4.585%
- Cc1ccsc1CNC(=O)C(C)n1cncn1 (centres undefined) | Mtb glucose medium: -14.2%
- CC1CN(C)CCN1CC(=O)NC(N)=O (centres undefined) | Mtb glucose medium: 9.489%
- N#CC1(C(=O)Nc2cc(C(N)=O)ccc2Cl)CCCC1 | Mtb glucose medium: 0.4694%
- NS(=O)(=O)c1ccccc1-c1ccccc1 | Mtb cholesterol medium: 21.97%
- CN1CCC(C(=O)NC2CCOCC2)CC1=O (centres undefined) | Mtb glucose medium: 7.451%
- CN(c1ccc(F)cc1)S(=O)(=O)N1CCCCC1 | Mtb cholesterol medium: 63.77%; Mtb glucose medium: 68.94%
- CCC(C)(CC)NC(=O)NC(C)CS(=O)(=O)CC (centres undefined) | Mtb glucose medium: 1.819%

Some entries from above, unchanged:

structure	Mtb cholesterol medium	Mtb glucose medium
CCC(NC(=O)c1cccn1C(C)C)[C@H]1C[C@H](O)C1 (some centres undefined)	-	-13.79
Cn1c(=O)[nH]c2cc(C(=O)N3CCCCCC3)ccc21	11.04	-
O=C(c1cccc(F)c1)N1CCN(c2nccs2)CC1	-	53.05
CC(C)(C#N)c1ccc(-c2cc(C(N)=O)ccn2)cc1	-	44.53